PubChem BioAssay AID1259414 – Drosophila RNAi Screening Center, 2018
Assay: 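Fly genes that alter Wolbachia amount inside host cells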 (primary screen). Cells: Drosophila JW18 cells infected with Wolbachia. Reagents: long dsRNA against Drosophila genes, 0.25 µg dsRNA per well of a 384-well plate. Duration: 5 days. Treatment: cells persistently infected with Wolbachia before knock-down; no added drug. Measurement: 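Imaged fluorescence in situ signal for Wolbachia 23S rRNA per DAPI-counted host cell, given as a robust z-score within each plate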. Direction: Wolbachia per cell robust z: higher = more Wolbachia per host cell than the plate typical. Call rule: 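Hit when robust z is 1.5 or more, or -1.5 or less, in at least two of three replicates; excludes dsRNAs with several or no targets, genes not expressed in JW18 and well A1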.
The deposit covers about 24,000 reagents; this is an unselected part of those that have a named target and a result. Over the whole deposit, about 1,210 (5%) got an active call. 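Inactive calls also include excluded dsRNAs with several or no targets, genes unexpressed in JW18, and well A1, regardless of score.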

no.	gene	dsRNA	Wolbachia per cell robust z, rep 1	Wolbachia per cell robust z, rep 2	Wolbachia per cell robust z, rep 3	outcome
1	Atg16 (Autophagy-related 16)	DRSC15052	-1.61	0.851	0.477	inactive
2	Atg16 (Autophagy-related 16)	DRSC15300	0.375	-3.39	0.309	inactive
3	Atg16 (Autophagy-related 16)	DRSC15375	0.198	0.464	0.934	inactive
4	TotA (Turandot A)	DRSC13448	0.023	0.498	0.813	inactive
5	GluRIA (Glutamate receptor IA)	DRSC11176	0.273	-0.484	-2.84	inactive
6	CG30429	DRSC04040	1.06	0.0167	0.273	inactive
7	CG11670	DRSC14342	-0.34	0.956	0.767	inactive
8	HtrA2 (HTRA2-related serine protease)	DRSC16425	0.997	0.456	-9.3	inactive
9	HtrA2 (HTRA2-related serine protease)	DRSC28553	-3.12	-2.17	-4.05	active
10	hng1 (hinge1)	DRSC04555	-0.528	-1.07	0.192	inactive
11	eEF1gamma (eukaryotic translation elongation factor 1 gamma)	DRSC16659	0.222	0.489	0.493	inactive
12	eEF1gamma (eukaryotic translation elongation factor 1 gamma)	DRSC23655	-1.56	0.736	0.105	inactive
13	Ldh (Lactate dehydrogenase)	DRSC11198	0.305	0.548	0.243	inactive
14	Dred (Dctn1-related)	DRSC11057	1.26	0.41	0.859	inactive
15	Dred (Dctn1-related)	DRSC11059	-0.405	0.0649	-1.05	inactive
16	Mvd (Mevalonate diphosphate decarboxylase)	DRSC20096	0.404	-1.28	-0.645	inactive
17	Mvd (Mevalonate diphosphate decarboxylase)	DRSC41355	-2.54	0.107	-0.387	inactive
18	sstn (stepping stone)	DRSC10753	-0.25	-0.293	0.401	inactive
19	sstn (stepping stone)	DRSC29335	0.17	0.792	0.537	inactive
20	tra2 (transformer 2)	DRSC07708	-0.48	-3.32	-2.4	active
21	tra2 (transformer 2)	DRSC29704	0.069	0.409	-0.324	inactive
22	inaF-B	DRSC18903	-0.676	-0.7	-0.899	inactive
23	CG30378	DRSC05071	-4.43	-0.836	-1.28	inactive
24	Sec24AB (Secretory 24AB)	DRSC06478	-5.39	0.193	-0.448	inactive
25	Sec24AB (Secretory 24AB)	DRSC25940	-4.09	1.13	-0.857	inactive
26	CG4714	DRSC06883	0.318	-0.698	-0.129	inactive
27	meru	DRSC09400	-1.21	0.000616	-0.281	inactive
28	meru	DRSC10215	0.544	0.379	0.192	inactive
29	mAcon1 (Mitochondrial aconitase 1)	DRSC01853	0.672	-2.4	-0.93	inactive
30	mAcon1 (Mitochondrial aconitase 1)	DRSC24875	-0.556	-1.01	0.0075	inactive
31	mAcon1 (Mitochondrial aconitase 1)	DRSC38959	1.92	0.718	0.61	inactive
32	CG12289	DRSC09874	0.838	0.937	-2.29	inactive
33	CG14089	DRSC10093	-0.785	0.503	-0.686	inactive
34	CG14089	DRSC24848	0.558	0.483	1.02	inactive
35	Jwa	DRSC02048	0.219	-0.236	-0.179	inactive
36	Jwa	DRSC26655	0.11	-0.354	0.782	inactive
37	CG43050	DRSC40546	-0.734	-0.458	-0.831	inactive
38	CG13727	DRSC10055	-3.79	-3.58	-2.49	inactive
39	CG8155	DRSC07084	1.11	0.286	-0.697	inactive
40	CG8155	DRSC21543	-1.47	-0.559	-0.953	inactive
41	CG8155	DRSC28386	-3.8	-1.67	-2.59	active
42	CG13627	DRSC14629	-4.04	-1.97	0.462	inactive
43	CG3008	DRSC00560	-0.464	0.91	0.442	inactive
44	CG16775	DRSC10225	0.662	0.779	-0.613	inactive
45	Eato (Engulfment ABC Transporter in the ovary)	DRSC01891	1.06	1.2	0.955	inactive
46	Eato (Engulfment ABC Transporter in the ovary)	DRSC03061	0.972	1.06	2.3	inactive

Part of the list above, set out differently.
| gene | dsRNA | Wolbachia per cell robust z, rep 1 | Wolbachia per cell robust z, rep 2 | Wolbachia per cell robust z, rep 3 | outcome |
| --- | --- | --- | --- | --- | --- |
| meru | DRSC10215 | 0.544 | 0.379 | 0.192 | inactive |
| mAcon1 (Mitochondrial aconitase 1) | DRSC01853 | 0.672 | -2.4 | -0.93 | inactive |
| mAcon1 (Mitochondrial aconitase 1) | DRSC24875 | -0.556 | -1.01 | 0.0075 | inactive |
| mAcon1 (Mitochondrial aconitase 1) | DRSC38959 | 1.92 | 0.718 | 0.61 | inactive |
| CG12289 | DRSC09874 | 0.838 | 0.937 | -2.29 | inactive |
| CG14089 | DRSC10093 | -0.785 | 0.503 | -0.686 | inactive |
| CG14089 | DRSC24848 | 0.558 | 0.483 | 1.02 | inactive |
